# Source: PubChem BioAssay AID504761 (Drosophila RNAi Screening Center, 2011)
# Assay: 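Genome-wide fly cell screen for genes dengue virus requires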 (primary screen)
# Cell system: D.Mel-2 cells from Drosophila
# Reagent: long dsRNA against Drosophila genes
# Treatment: infection with dengue virus type 2; dose and infection time not stated
# Detection: 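Cells stained for dengue envelope protein and imaged; percent of infected cells per well on duplicate plates, ranked by infection, with stained nuclei counted for cell number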
# Scale: infection score: higher = more virus-infected cells; cell count: higher = more cells in the well
# Call rule: 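Low infection ranks in the two replicates (chance level up to 0.065) followed by a retest with a 1.5-fold or larger significant decrease, p below 0.05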
# Meaning of the calls: active = confirmed: knock-down lowers infection; inactive = not picked or not confirmed
# The screen tested about 22,000 reagents; shown is an unselected part of those with a known target gene and a result. In the full data, 116 (0.52%) got an active call. 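Calls depend on retest data that are not deposited; infection was ranked per plate without normalising between plates; the unit of the infection score is not given.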 The raw values are shown without normalisation. Not stated in the record: the amount of reagent, the time to read-out.
Gene,dsRNA,"infection score, replicate 1","infection score, replicate 2","cell count, replicate 1","cell count, replicate 2",Outcome
CG46301 (GeneID 34829),DRSC01916,2.03,6.62,6117,6630,inactive
CG46301 (GeneID 34829),DRSC25566,5.03,1.69,5926,6409,inactive
plh (GeneID 40615),DRSC12294,4.52,14.8,5615,6395,inactive
GCS2alpha (GeneID 49953),DRSC21036,0.52,0.11,6682,6629,active
CG11617 (GeneID 33183),DRSC00321,4.82,1.35,6369,6750,inactive
CG11617 (GeneID 33183),DRSC21786,5.49,1.9,6780,6732,inactive
CG11617 (GeneID 33183),DRSC28154,26.7,6.65,4010,6585,inactive
sni (GeneID 31761),DRSC17770,2.34,1.17,6068,6220,inactive
sni (GeneID 31761),DRSC25897,1.52,4.57,6442,6543,inactive
dpr4 (GeneID 3346160),DRSC14531,6.3,5.8,5729,6471,inactive
dpr4 (GeneID 3346160),DRSC14929,7.52,3.75,5507,5598,inactive
CG11470 (GeneID 43480),DRSC14313,,4.31,407,1044,inactive
CG13135 (GeneID 34345),DRSC02232,4.06,1.84,6773,6415,inactive
CG13135 (GeneID 34345),DRSC27657,25.1,14.9,5419,5734,inactive
CecA1 (GeneID 43596),DRSC16603,2.31,,6496,345,inactive
Teh1 (GeneID 41215),DRSC14544,1.98,2.62,6263,6480,inactive
CG13373 (GeneID 30988),DRSC27059,3.83,5.08,6665,6530,inactive
Rab40 (GeneID 32195),DRSC19820,5.36,32.5,932,4374,inactive
salm (GeneID 34569),DRSC03606,10.9,8.96,5899,5963,inactive
salm (GeneID 34569),DRSC29912,10.5,6.65,6192,6402,inactive
Tango2 (GeneID 32319),DRSC19394,3.26,1.83,6290,7058,inactive
Tango2 (GeneID 32319),DRSC21526,2.88,3.4,5877,6432,inactive
Rsph4a (GeneID 37831),DRSC04338,20.7,37.4,6153,4352,inactive
Rsph4a (GeneID 37831),DRSC28287,10.8,1.47,2448,475,inactive
Mos (GeneID 36404),DRSC07258,4,8.21,7023,6647,inactive
CG15580 (GeneID 40743),DRSC12266,3.84,11.8,6252,6099,inactive
CG15580 (GeneID 40743),DRSC24180,3.02,27.1,6631,5875,inactive
Ugt49B1 (GeneID 37420),DRSC04461,16.3,16.7,6503,6635,inactive
Ugt49B1 (GeneID 37420),DRSC26568,4.67,9.9,5910,5760,inactive
CG1791 (GeneID 31927),DRSC18141,3.81,2.89,6685,6748,inactive
CG1791 (GeneID 31927),DRSC29301,,10.8,354,4665,inactive
CG14744 (GeneID 35858),DRSC06480,6.62,8.21,6451,5689,inactive
Atf-2 (GeneID 37978),DRSC04130,15.6,26.8,6539,5851,inactive
Atf-2 (GeneID 37978),DRSC04413,0.86,5.32,6617,6226,inactive
Nepl4 (GeneID 33889),DRSC03239,5.42,12.9,5978,3623,inactive
NLaz (GeneID 33324),DRSC21521,1.78,2.37,5954,6208,inactive
vsg (GeneID 39137),DRSC10219,3.06,2.46,6600,6586,inactive
vsg (GeneID 39137),DRSC25227,1.28,5.63,6326,6237,inactive
CG7607 (GeneID 39263),DRSC10889,4.84,6.26,6384,6244,inactive
CSN7 (GeneID 35816),DRSC06807,31.8,22.2,3260,5192,inactive
CSN7 (GeneID 35816),DRSC06808,6.98,10.5,6006,6367,inactive
RpS26 (GeneID 35098),DRSC03420,6.86,9.96,831,1727,inactive
CG9356 (GeneID 41122),DRSC16476,8.72,5.76,6596,6826,inactive
CG4891 (GeneID 34948),DRSC01936,17.5,7.05,6119,6507,inactive
CG4891 (GeneID 34948),DRSC24341,1.83,2.33,6020,6179,inactive
CG4069 (GeneID 39437),DRSC10396,10.6,17.3,6717,6487,inactive
CG32198 (GeneID 317909),DRSC09553,0.94,0.07,6595,5917,inactive
CG32198 (GeneID 317909),DRSC27630,5.12,7.13,6334,6521,inactive
Neu2 (GeneID 40375),DRSC11819,7.7,2.1,6353,6477,inactive
Neu2 (GeneID 40375),DRSC26795,9.06,2.26,6555,6535,inactive
Prosap (GeneID 50225),DRSC06382,5.22,8.27,6760,5877,inactive
Prosap (GeneID 50225),DRSC07081,15.9,10.8,5818,6146,inactive
CG4502 (GeneID 34002),DRSC23237,1.32,10.4,6504,6551,inactive
His4r (GeneID 41773),DRSC16703,1.49,6.29,5588,5847,inactive
His4r (GeneID 41773),DRSC27569,18.5,10.2,5826,5880,inactive
Paip2 (GeneID 41591),DRSC14504,14.7,17.4,3776,3762,inactive
dati (GeneID 43789),DRSC17128,2.02,5.74,6076,6689,inactive
dati (GeneID 43789),DRSC17153,11.2,13.6,3565,5825,inactive
dati (GeneID 43789),DRSC25407,17.7,18.5,6145,5261,inactive

8 entries from above, sorted by “cell count, replicate 1”, ascending.
Gene,dsRNA,"infection score, replicate 1","infection score, replicate 2","cell count, replicate 1","cell count, replicate 2",Outcome
CG1791 (GeneID 31927),DRSC29301,,10.8,354,4665,inactive
Ugt49B1 (GeneID 37420),DRSC26568,4.67,9.9,5910,5760,inactive
Nepl4 (GeneID 33889),DRSC03239,5.42,12.9,5978,3623,inactive
CG14744 (GeneID 35858),DRSC06480,6.62,8.21,6451,5689,inactive
Ugt49B1 (GeneID 37420),DRSC04461,16.3,16.7,6503,6635,inactive
Atf-2 (GeneID 37978),DRSC04130,15.6,26.8,6539,5851,inactive
Atf-2 (GeneID 37978),DRSC04413,0.86,5.32,6617,6226,inactive
CG1791 (GeneID 31927),DRSC18141,3.81,2.89,6685,6748,inactive
